# According to paper PMC12800083, “Structural and catalytic diversity of coronavirus proofreading exoribonuclease” (2025):
# Target: MERS-CoV nsp10-nsp14 E191A mutant complex (MERS-CoV)
# Assay: cryo-EM structure
substance,measurement,value
MERS-CoV nsp10-nsp14 E191A mutant complex,stoichiometry N,2
